Results as given in patent US11118200B2, “Method for preparing amines from aldehydes and ketones by biocatalysis” (COMMISSARIAT A L'ENERGIE ATOMIQUE ET AUX ENERGIES …, priority 2017, dated 2021).

Experiments:
enzyme of SEQ ID NO:1 [1] = assay: Reductive amination on 9 μmol scale, configuration of the amine product (UHPLC-UV-MS, chiral GC-FID); assay type: biochemical, Mycobacterium smegmatis; conditions: 48 h at 30° C.; for diastereoisomeric excess of the (1S)-amine formed, enzyme of SEQ ID NO:1: chiral GC-FID
enzyme of SEQ ID NO:2 [2] = assay: as above; assay type: biochemical, Cystobacter fuscus DSM 2262; conditions: 48 h at 30° C.; for diastereoisomeric excess of the (1S)-amine formed, enzyme of SEQ ID NO:2: chiral GC-FID
enzyme of SEQ ID NO:1 [3] = assay: Semi-preparative-scale reductive amination (1 mmol) with ammonia as amine source; assay type: biochemical, Mycobacterium smegmatis; conditions: for Conversion, SEQ ID NO: 1: 50 mM carbonyl-containing compound, 30° C.; for Conversion, SEQ ID NO: 1 / TTN (total turnover), SEQ ID NO: 1: enzyme loading 0.3 mg/mL
enzyme of SEQ ID NO:2 [4] = assay: as above; assay type: biochemical, Cystobacter fuscus DSM 2262; conditions: chiral GC-FID
[5] = 30 mM carbonyl-containing compound, 0.5 mg/ml enzyme, ammonia as amine source
[6] = racemic ketone 30 mM, 0.5 mg/ml enzyme
[7] = chiral GC-FID, semi-preparative scale

For `CC1CCCCC1=O` (racemic) [2-methylcyclohexanone], which “enantiomeric excess of the (S)-amine formed, enzyme of SEQ ID NO:1” value (enzyme of SEQ ID NO:1 [1]; [5]) is on record?
Its value is 91%.

What about the “diastereoisomeric excess of the (1S)-amine formed, enzyme of SEQ ID NO:1” value (enzyme of SEQ ID NO:1 [1]; [6]) of the same compound?
Its value is 91%.

What about the “enantiomeric excess of the (S)-amine formed, enzyme of SEQ ID NO:2” value (enzyme of SEQ ID NO:2 [2]; [5]) of the same compound?
The value was 99%.

And the “diastereoisomeric excess of the (1S)-amine formed, enzyme of SEQ ID NO:2” value (enzyme of SEQ ID NO:2 [2]; [6])?
Its value is 69%.

What about the “Conversion, SEQ ID NO: 1” value (enzyme of SEQ ID NO:1 [3]) of the same compound?
The value was 55%.

What about the “TTN (total turnover), SEQ ID NO: 1” value (enzyme of SEQ ID NO:1 [3]) of the same compound?
Its value is 6847.

With `CCC[C@H](C)N` [(2S)-pentan-2-amine] as the compound, how does the “ee of the amine obtained, SEQ ID NO: 2” value (enzyme of SEQ ID NO:2 [4]) read?
Its value is no less than 97%.

For `C[C@@H]1CCC[C@H](N)C1.Cl` [(1S, 3R)-3-methylcyclohexylamine hydrochloride], which “cis/trans product ratio, SEQ ID NO: 1” value (enzyme of SEQ ID NO:1 [3]; [7]) is on record?
Its value is 97/3.

And the “ed of the amine obtained, SEQ ID NO: 1” value (enzyme of SEQ ID NO:1 [3]; [7])?
Its value is no less than 99%.

For `CC1CCCC(=O)C1` (racemic) [3-methylcyclohexanone], which “diastereoisomeric excess of the (1S)-amine formed, enzyme of SEQ ID NO:1” value (enzyme of SEQ ID NO:1 [1]; [6]) is on record?
Its value is greater than 97%.

And the “diastereoisomer preferentially formed, enzyme of SEQ ID NO:1” value (enzyme of SEQ ID NO:1 [1]; racemic ketone 30 mM)?
Its value is “(1S, 3R)-3-methylcyclohexylamine”.

And the “diastereoisomeric excess of the (1S)-amine formed, enzyme of SEQ ID NO:2” value (enzyme of SEQ ID NO:2 [2]; [6])?
The value was 95%.

And the “diastereoisomer preferentially formed, enzyme of SEQ ID NO:2” value (enzyme of SEQ ID NO:2 [2]; racemic ketone 30 mM)?
Its value is “(1S, 3R)-3-methylcyclohexylamine”.

And the “Conversion, SEQ ID NO: 1” value (enzyme of SEQ ID NO:1 [3])?
Its value is 45%.

What about the “TTN (total turnover), SEQ ID NO: 1” value (enzyme of SEQ ID NO:1 [3]) of the same compound?
Its value is 5933.
